Compound potency records, mixed from different reports. Data source: NIAID ChemDB in PubChem.

All rows: tests in culture; species: HIV-1

Two numbers with a dash give a range or band. Neighbouring rows are from separate reports. An empty or dashed field is not shown. ECn is the concentration giving n% inhibition of infection, replication or growth.

| structure | changes | strain or isolate | cells | read-out | method | result |
|---|---|---|---|---|---|---|
| CC(=O)OC[C@H]1O[C@@H](SCCOP(=O)(OCS[C@@H]2O[C@H](COC(C)=O)[C@@H](OC(C)=O)[C@H](OC(C)=O)[C@H]2OC(C)=O)OC[C@H]2O[C@@H](n3cc(C)c(=O)[nH]c3=O)C[C@@H]2N=[N+]=[N-])[C@H](OC(C)=O)[C@@H](OC(C)=O)[C@@H]1OC(C)=O | - | IIIB | MT-4 | EC50 | cytopathic effect / MTT | 0.3 µM |
| CC(C)(C)NC(=O)[C@@H]1CN(Cc2cccnc2)CCN1C[C@@H](O)C[C@@H](Cc1ccccc1)C(=O)N[C@H]1c2ccccc2C[C@H]1O | PR-L10I K20R M36I/V P63L/S L90M | BR59 (PR L10I K20R M36I/V P63L/S L90M) | PBMC | EC50 | p24 | 0.003 µM |
| Nc1nc2c(ncn2[C@H]2CS[C@@H](CO)S2)c(=O)[nH]1 | - | - | MT-4 | EC50 | - | >100 µg/mL |
| CC(C)[C@H](NC(=O)c1ccc2ccccc2n1)C(=O)N[C@@H](Cc1ccccc1)[C@H](O)C(=O)N1[C@H](C(=O)NC(C)(C)C)C[C@@H]2CCCC[C@@H]21 | - | RF | MT-2 | EC90 | p24 | 0.53 µM |
| OC[C@@H]1SC[C@H](n2cnc3c(Cl)ncnc32)S1 | - | - | MT-4 | EC50 | - | >10 µg/mL |
| CCCCCc1ccc(-c2cc3cn(C/C=C/C(O)CO)c(=O)nc3o2)cc1 | - | LAI | PBMC | EC90 | RT activity | >100 µM |
| Cc1cn([C@H]2C[C@H](N=[N+]=[N-])[C@@H](COC(=O)C(=O)NC(Cc3ccccc3)C(=O)O)O2)c(=O)[nH]c1=O | - | IIIB | PBMC | EC50 | p24 | 0.45 µM |
| Nc1nc(=O)n([C@H]2CS[C@@H](CO)S2)cc1F | - | - | MT-4 | EC50 | - | 4.8 µg/mL |
| O=C(CSc1nncnc1-c1ccccc1Cl)Nc1ccccc1 | - | IIIB | MT-4 | EC50 | MTT | 0.42 µM |
| CC(C)(C)NC(=O)[C@@H]1C[C@@H]2CCCC[C@@H]2CN1C[C@@H](O)[C@H](Cc1ccccc1)NC(=O)[C@H](CC(N)=O)NC(=O)c1ccc2ccccc2n1 | - | IIIB | MT-4 | EC50 | cytopathic effect / MTT | <0.008 µg/mL |
| Nc1nc(N)c2ncn([C@H]3CO[C@@H](CO)O3)c2n1 | - | LAI | MT-2 | EC50 | cytopathic effect / XTT | 12.5 µM |
| O=S1(=O)NC(Cc2ccc(Cl)cc2Cl)=CC(=NC2CCN(Cc3ccccc3)CC2)N1 | RT-K103N Y181C | RES056 | MT-4 | EC50 | MTT | >110.8 µM |
| CC(C)(C)NC(=O)[C@@H]1C[C@@H]2CCCC[C@@H]2N1C(=O)[C@@H](O)[C@H](Cc1ccc(O)cc1)NC(=O)[C@H](CC(N)=O)NC(=O)COc1cccc2ccccc12 | - | RF | MT-2 | EC50 | p24 | 0.36 µM |
| O=c1[nH]c(=O)n(COCCO)cc1C#Cc1ccccc1 | - | LAI | PBMC | EC90 | RT activity | >100 µM |
| Nc1ccn([C@H]2CC[C@@H](CO)O2)c(=O)n1 | - | IIIB | MT-4 | EC50 | MTT | 1.4 µM |
| CC(=O)OC[C@H]1O[C@@H](SCCOP(=O)(OCCS[C@@H]2O[C@H](CO)[C@@H](O)[C@H](O)[C@H]2O)OC[C@H]2O[C@@H](n3cc(C)c(=O)[nH]c3=O)C[C@@H]2N=[N+]=[N-])[C@H](OC(C)=O)[C@@H](OC(C)=O)[C@@H]1OC(C)=O | - | LAI | MM + M/M | EC50 | RT activity | 0.04 µM |
| CC(C)(C)NC(=O)[C@@H]1CN(Cc2cccnc2)CCN1C[C@@H](O)C[C@@H](Cc1ccccc1)C(=O)N[C@H]1c2ccccc2C[C@H]1O | - | Z2Z6 | PM1 | EC50 | cytopathic effect / MTT | 0.2 µM |
| Cc1ccnc2c1NC(=O)c1cccnc1N2C1CC1 | RT-D67N K70R T215Y K219Q Y181C | - | MT-4 | EC95 | - | >3 µM |
| CCOC(=O)[C@@H](NC(=O)[C@@H](O)[C@H](O)C(=O)N[C@H](C(=O)OCC)[C@@H](C)CC)[C@@H](C)CC | - | Z2Z6 | PM1 | EC50 | cytopathic effect / MTT | >100 µM |
| Cc1ccc(Cn2c(=O)ccn(CC#N)c2=O)cc1 | - | IIIB | PBMC | EC50 | - | 94.8 µM |
| CCOC(=O)c1c[nH]cc1S(=O)(=O)c1cc(Cl)ccc1NCC=C(C)C | - | IIIB | MT-4 | EC50 | cytopathic effect / MTT | >12 µM |
| O=C(NC1c2ccccc2C[C@H]1O)[C@H](CCc1ccccc1)[C@@H](O)[C@H](O)[C@@H](CCc1ccccc1)C(=O)N[C@H]1c2ccccc2C[C@H]1O | - | - | MT-4 | EC50 | cytopathic effect / XTT | 0.093 µM |
| CN(C(=O)COc1cccc2cnccc12)[C@@H](CC(F)(F)F)C(=O)N[C@@H](Cc1ccccc1)[C@H](O)C(=O)N1CSC[C@H]1C(=O)NC(C)(C)C | - | IIIB | MT-4 | EC50 | cytopathic effect / MTT | 0.25 µg/mL |
| CCOC(=O)c1c[nH]cc1S(=O)(=O)c1cc(Cl)ccc1N | RT-Y181C | Clinical isolate | MT-4 | EC50 | cytopathic effect / MTT | ≥30 µM |
| N#Cc1ccc(CN2CCC(N=C3C=C(Cc4cccc5ccccc45)NS(=O)(=O)N3)CC2)cc1 | RT-K103N Y181C | RES056 | MT-4 | EC50 | MTT | >100 µM |
| N#CCn1ccc(=O)n(Cc2c(F)cccc2F)c1=O | - | IIIB | PBMC | EC50 | - | 364 µM |
| CC(C)NC(=O)[C@@H]1C[C@@H]2CCCC[C@@H]2N1C(=O)[C@@H](O)[C@H](Cc1ccccc1)NC(=O)[C@@H](NC(=O)COc1cccc2ccccc12)C(C)C | - | RF | MT-2 | EC90 | p24 | 0.035–0.16 µM |
| O=[N+]([O-])c1ccc(CN2CCC(N=C3C=C(Cc4ccc(Cl)cc4Cl)NS(=O)(=O)N3)CC2)cc1 | - | IIIB | MT-4 | EC50 | MTT | 22.94 µM |
| Cc1cc(C)cc(Cn2c(=S)ccn(Cc3ccccc3)c2=O)c1 | - | IIIB | PBMC | EC50 | - | 0.051 µM |
| Nc1nc(NC2CC2)c2ncn([C@H]3C=C[C@@H](CO)C3)c2n1 | - | HXB2 | MT-2 | EC50 | cytopathic effect / XTT | 1.1 µM |
| Cc1cn([C@H]2C[C@H](N=[N+]=[N-])[C@@H](COC(=O)C(=O)N[C@@H](CC(C)C)C(=O)O)O2)c(=O)[nH]c1=O | - | IIIB | MT-2 | EC50 | p24 | 0.05 µM |
| Cc1ccc(Cn2c(=O)ccn(CC#N)c2=O)cc1C | - | IIIB | PBMC | EC50 | - | 3.75 µM |
| C[C@@H](NC(=O)[C@@H](O)[C@H](O)C(=O)N[C@H](C)c1ccccc1)c1ccccc1 | - | Z2Z6 | PM1 | EC50 | cytopathic effect / MTT | >100 µM |
| CC(C)CN([C@H](CO)CCCCNC(=O)[C@@H](NC(=O)c1ccc(N)nc1)C(c1ccccc1)c1ccccc1)S(=O)(=O)c1ccc(N)cc1 | - | NL4-3 | MT-4 | EC50 | cytopathic effect / MTT | 0.084 µM |
| CC(C)Nc1cccnc1N1CCN(C(=O)c2cc3cc(NS(C)(=O)=O)ccc3[nH]2)CC1 | - | RES056 | MT-4 | EC50 | MTT | >36 µM |
| Nc1nc(=O)n([C@@H]2CO[C@H](CO)S2)cc1F | - | HXB2D | PBMC | EC50 | p24 | 1.4 µM |
| CC(=O)O[C@H](C(=O)NCc1ccccc1)[C@H](OC(C)=O)C(=O)NCc1ccccc1 | - | Z2Z6 | PM1 | EC50 | cytopathic effect / MTT | >100 µM |
| Cc1cc(C)cc(Cn2c(=O)c(C)cn(Cc3ccccc3)c2=O)c1 | - | IIIB | PBMC | EC50 | - | 1.44 µM |
| O=C(N[C@H]1c2ccccc2C[C@H]1O)[C@H](OCc1ccccc1)[C@H](O)[C@@H](O)[C@@H](OCc1ccccc1)C(=O)N[C@H]1c2ccccc2C[C@H]1O | - | - | MT-4 | EC50 | - | 0.096 µM |
| CCOC(=O)[C@H](C)NC(=O)[C@@H](O)[C@H](O)C(=O)N[C@@H](C)C(=O)OCC | - | Z2Z6 | PM1 | EC50 | cytopathic effect / MTT | >100 µM |
| Nc1ccn([C@H]2CO[C@@H](CO)S2)c(=O)n1 | - | HXB2D | PBMC | EC50 | p24 | 0.1 µM |
| CCOC(=O)c1cn(C)cc1S(=O)(=O)c1cc(Cl)ccc1N | RT-Y181C | Clinical isolate | MT-4 | EC50 | cytopathic effect / MTT | ≥30 µM |
| CCCCCc1ccc(C#Cc2cn(C/C=C/C(O)CO)c(=O)[nH]c2=O)cc1 | - | LAI | PBMC | EC90 | RT activity | 91.6 µM |
| CC(C)(C)NC(=O)[C@@H]1C[C@@H]2CCCC[C@@H]2N1C(=O)[C@@H](O)[C@H](Cc1ccccc1)NC(=O)[C@H](CC(N)=O)NC(=O)c1ccc2ccccc2n1 | - | RF | MT-2 | EC50 | p24 | 0.007–0.026 µM |
| CNC(=O)[C@@H](NC(=O)[C@H](OCc1ccccc1)[C@H](O)[C@H](O)[C@@H](OCc1ccccc1)C(=O)N[C@H](C(=O)NC)C(C)C)C(C)C | - | - | MT-4 | EC50 | cytopathic effect / XTT | >10 µM |
| Cc1cn([C@H]2C[C@H](N=[N+]=[N-])[C@@H](COP(=O)(OCCS[C@@H]3O[C@H](CO)[C@@H](O)[C@H](O)[C@H]3O)OCCS[C@@H]3O[C@H](CO)[C@@H](O)[C@H](O)[C@H]3O)O2)c(=O)[nH]c1=O | - | BaL | PBMC | EC50 | RT activity | 0.01 µM |
| COC(=O)N[C@@H](Cc1ccccc1)C(=O)NCCCC[C@@H](CO)N(CC(C)C)S(=O)(=O)c1ccc(N)cc1 | - | NL4-3 | MT-4 | EC50 | cytopathic effect / MTT | 2 µM |
| CCN1C(=O)c2cn(C)cc2S(=O)(=O)c2cc(Cl)ccc21 | - | IIIB | MT-4 | EC50 | cytopathic effect / MTT | 22 µM |
| Nc1nc2c(ncn2[C@H]2CO[C@@H](CO)O2)c(=O)[nH]1 | - | IIIB | MT-2 | EC50 | cytopathic effect / XTT | 1 µM |
| Cc1cc(C)cc(Cn2ccc(=O)n(Cc3cc(C)cc(C)c3)c2=O)c1 | - | IIIB | PBMC | EC50 | - | 0.52 µM |
| CC(C)=CCn1cc2c(c1)S(=O)(=O)c1cc(Cl)ccc1NC2=O | RT-K103N | Clinical isolate | C8166 | EC50 | cytopathic effect / MTT | ≥30 µM |
| Cc1ccc(Cn2c(=O)ccn(CC#N)c2=O)c(C)c1 | - | IIIB | PBMC | EC50 | - | 114 µM |
| Cc1cn([C@H]2C=C[C@@H](CO)O2)c(=O)[nH]c1=O | - | HXB2D | PBMC | EC50 | p24 | 0.42 µM |
| Cc1cn([C@H]2C[C@H](N=[N+]=[N-])[C@@H](COC(=O)C(=O)O)O2)c(=O)[nH]c1=O | - | IIIB | MT-2 | EC50 | p24 | 0.03 µM |
| CCOC(=O)[C@H](Cc1ccccc1)NC(=O)[C@@H](OC(C)=O)[C@H](OC(C)=O)C(=O)N[C@@H](Cc1ccccc1)C(=O)OCC | - | Z2Z6 | PM1 | EC50 | cytopathic effect / MTT | 50 µM |
| N#Cc1ccc(CN2CCC(N=C3C=C(Cc4ccc(Cl)cc4Cl)NS(=O)(=O)N3)CC2)cc1 | - | IIIB | MT-4 | EC50 | MTT | 27.02 µM |
| CCCCCC#Cc1cn(COCCO)c(=O)[nH]c1=O | - | LAI | PBMC | EC50 | RT activity | ~100 µM |
| Cc1cn([C@H]2C[C@H](N=[N+]=[N-])[C@@H](CO)O2)c(=O)[nH]c1=O | - | IIIB | MT-4 | EC50 | cytopathic effect / MTT | 0.01 µM |
| Nc1nc(=O)n([C@H]2CO[C@@H](CO)S2)cc1F | - | HXB2D | PBMC | EC50 | p24 | 3 µM |
| O=C(CSc1nncnc1-c1ccccc1Cl)Nc1ccccc1Cl | - | RES056 | MT-4 | EC50 | MTT | >55 µM |
| Cc1cc(C)cc(Cn2c(=O)ccn(Cc3c(F)cccc3F)c2=O)c1 | - | IIIB | PBMC | EC50 | - | 0.115 µM |
| Nc1ccn([C@@H]2CS[C@@H](CO)S2)c(=O)n1 | - | - | MT-4 | EC50 | - | >100 µg/mL |

8 of the rows above, restated:

structure	changes	strain or isolate	cells	read-out	method	result
CC(C)(C)NC(=O)[C@@H]1CN(Cc2cccnc2)CCN1C[C@@H](O)C[C@@H](Cc1ccccc1)C(=O)N[C@H]1c2ccccc2C[C@H]1O	-	Z2Z6	PM1	EC50	cytopathic effect / MTT	0.2 µM
COC(=O)N[C@@H](Cc1ccccc1)C(=O)NCCCC[C@@H](CO)N(CC(C)C)S(=O)(=O)c1ccc(N)cc1	-	NL4-3	MT-4	EC50	cytopathic effect / MTT	2 µM
CCOC(=O)[C@@H](NC(=O)[C@@H](O)[C@H](O)C(=O)N[C@H](C(=O)OCC)[C@@H](C)CC)[C@@H](C)CC	-	Z2Z6	PM1	EC50	cytopathic effect / MTT	>100 µM
CC(C)[C@H](NC(=O)c1ccc2ccccc2n1)C(=O)N[C@@H](Cc1ccccc1)[C@H](O)C(=O)N1[C@H](C(=O)NC(C)(C)C)C[C@@H]2CCCC[C@@H]21	-	RF	MT-2	EC90	p24	0.53 µM
O=[N+]([O-])c1ccc(CN2CCC(N=C3C=C(Cc4ccc(Cl)cc4Cl)NS(=O)(=O)N3)CC2)cc1	-	IIIB	MT-4	EC50	MTT	22.94 µM
Nc1nc(=O)n([C@H]2CO[C@@H](CO)S2)cc1F	-	HXB2D	PBMC	EC50	p24	3 µM
CC(C)(C)NC(=O)[C@@H]1C[C@@H]2CCCC[C@@H]2CN1C[C@@H](O)[C@H](Cc1ccccc1)NC(=O)[C@H](CC(N)=O)NC(=O)c1ccc2ccccc2n1	-	IIIB	MT-4	EC50	cytopathic effect / MTT	<0.008 µg/mL
C[C@@H](NC(=O)[C@@H](O)[C@H](O)C(=O)N[C@H](C)c1ccccc1)c1ccccc1	-	Z2Z6	PM1	EC50	cytopathic effect / MTT	>100 µM